PubChem BioAssay AID1259414 – Drosophila RNAi Screening Center, 2018
The deposit covers about 24,000 reagents; this is an unselected part of those that have a named target and a result. In the full data, about 1,210 (5%) are marked active. 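Inactive calls also include excluded dsRNAs with several or no targets, genes unexpressed in JW18, and well A1, regardless of score.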

- Test: 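Fly genes that alter Wolbachia amount inside host cells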 (primary screen)
- System: Drosophila JW18 cells infected with Wolbachia
- Reagents: long dsRNA against Drosophila genes, 0.25 µg dsRNA per well of a 384-well plate
- Timing: 5 days
- Treatment: cells persistently infected with Wolbachia before knock-down; no added drug
- Detection: 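Automated imaging of bacterial rRNA staining divided by host cell count, reported as plate-normalised robust z-score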
- Reading the numbers: Wolbachia per cell robust z: higher = more Wolbachia per host cell than the plate typical
- Active means: 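Hit when robust z is 1.5 or more, or -1.5 or less, in at least two of three replicates; excludes dsRNAs with several or no targets, genes not expressed in JW18 and well A1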

Target gene | DRSC id | Wolbachia per cell robust z, rep 1 | Wolbachia per cell robust z, rep 2 | Wolbachia per cell robust z, rep 3 | outcome
CG2898 | DRSC18238 | -2.94 | -1.83 | -2.6 | active
lncRNA:CR34335 | DRSC38742 | -0.186 | 0.759 | -0.00133 | inactive
PNUTS | DRSC00638 | -0.886 | 0.166 | -0.0944 | inactive
PNUTS | DRSC23503 | 0.668 | -0.787 | 1.85 | inactive
slam | DRSC03240 | -0.861 | 0.918 | -0.358 | inactive
CG17292 | DRSC02594 | -0.0951 | -0.123 | -2.4 | inactive
CG17292 | DRSC27746 | 0.228 | 0.0602 | 0.377 | inactive
Rap2l | DRSC04646 | -0.804 | 0.27 | -1.04 | inactive
jub | DRSC19367 | 0.5 | 1.82 | 0.722 | inactive
jub | DRSC26225 | 0.848 | -0.0337 | 0.205 | inactive
RIOK1 | DRSC09853 | 0.697 | 0.744 | 0.719 | inactive
ND-51L1 | DRSC06072 | 0.419 | 0.987 | 0.422 | inactive
Dim1 | DRSC00563 | 0.203 | 0.596 | 1.23 | inactive
Leash | DRSC15617 | 1.53 | 0.944 | 0.224 | inactive
Leash | DRSC28712 | 0.891 | 0.747 | -0.351 | inactive
Syn1 | DRSC11803 | -0.851 | -6.33 | 1.22 | inactive
Syn1 | DRSC11804 | -0.806 | 0.319 | -9.08 | inactive
Syn1 | DRSC30039 | 0.636 | -0.714 | -0.894 | inactive
CG15597 | DRSC12283 | -0.318 | -1.2 | -0.205 | inactive
CG15597 | DRSC24202 | -1.01 | 0.901 | -0.323 | inactive
CG30371 | DRSC06835 | 1.03 | 1.47 | 1.33 | inactive
Atg17 | DRSC12221 | -1.49 | -1.38 | -1.74 | inactive
pn | DRSC18822 | -0.0859 | -0.491 | -7.61 | inactive
pn | DRSC28649 | 1.28 | 0.497 | 0.852 | inactive
pn | DRSC41551 | -2.88 | 0.169 | 1.64 | inactive
Gr93c | DRSC14587 | -4.7 | -0.578 | -1.35 | inactive
CSN1b | DRSC11108 | 0.0923 | 1.26 | 0.628 | inactive
Ace | DRSC14100 | 0.442 | 0.267 | -0.0055 | inactive
Ace | DRSC25364 | -2.66 | -0.759 | -1.34 | inactive
CG10333 | DRSC02036 | 0.0628 | 1.53 | 0.566 | inactive
CG10333 | DRSC29270 | -7.51 | -0.785 | 0.413 | inactive
Zasp52 | DRSC06269 | 0.711 | 0.755 | -2.05 | inactive
Zasp52 | DRSC07121 | -0.0243 | 0.325 | -0.57 | inactive
CG34054 | DRSC37910 | 1.72 | 1.07 | 0.763 | inactive
CG5973 | DRSC02918 | -0.824 | 0.51 | 0.0984 | inactive
Arpc3A | DRSC15596 | 1.95 | 0.445 | 0.144 | inactive
Arpc3A | DRSC27915 | 0.00698 | 0.887 | 0.268 | inactive
Tcs3 | DRSC10461 | 1.39 | 0.957 | 0.241 | inactive
Tcs3 | DRSC29969 | 0.104 | 0.41 | -0.0842 | inactive
egh | DRSC18771 | -0.536 | 0.927 | -0.421 | inactive
egh | DRSC29898 | 0.85 | 0.758 | 0.954 | inactive
CG13829 | DRSC14679 | 0.562 | 0.79 | 1.11 | inactive
CG13623 | DRSC14625 | -0.372 | -2.56 | -2.94 | active
CG31922 | DRSC21703 | -1.53 | 0.0998 | 0.166 | inactive
CG31922 | DRSC26533 | 1.51 | 1.2 | 0.902 | inactive
CG10979 | DRSC12153 | -0.469 | -1.64 | -1.92 | active
CG5866 | DRSC15900 | 0.0374 | 1.33 | -0.384 | inactive
CG32075 | DRSC10622 | 1.48 | 0.0013 | -0.419 | inactive
CG32075 | DRSC29881 | 0.732 | 1.04 | 0.231 | inactive
CG42319 | DRSC06645 | -1.04 | -2.77 | -3.68 | inactive
CG42319 | DRSC06646 | -1.8 | -1.47 | -0.883 | inactive
CG42319 | DRSC22426 | 0.0057 | -0.627 | -1.69 | inactive
CG42319 | DRSC26059 | 2.6 | -0.724 | -4.19 | inactive
GstD4 | DRSC16685 | -2.49 | -2.58 | 0.826 | inactive
GstD4 | DRSC27765 | 0.614 | -0.588 | -3.63 | inactive
GstD4 | DRSC38958 | 2.15 | 0.712 | 0.364 | inactive
Sirt4 | DRSC18290 | -0.217 | 0.495 | -0.614 | inactive
Sirt4 | DRSC27472 | -4.06 | 1.24 | -1.16 | inactive
CG2852 | DRSC04321 | -2.06 | 0.00163 | -0.626 | inactive
CG2852 | DRSC27956 | -0.0657 | 0.502 | -0.693 | inactive
Prosbeta3 | DRSC16801 | 2.63 | 1.87 | 0.909 | active
CG31832 | DRSC22067 | 0.805 | 0.877 | 0.785 | inactive
CG31832 | DRSC26012 | -0.0158 | 0.15 | -0.706 | inactive
Rtc1 | DRSC20285 | -0.0736 | -0.37 | 0.106 | inactive
Spn42Da | DRSC05025 | -0.735 | -1.36 | -0.319 | inactive
Spn42Da | DRSC40805 | -1.33 | 0.274 | -1.19 | inactive
wfs1 | DRSC15676 | 0.309 | 0.0766 | -5.94 | inactive
CG11858 | DRSC14412 | -3.33 | -2.66 | -3.75 | active
CG11858 | DRSC29222 | -0.421 | 0.31 | -1.05 | inactive
